Results taken from patent publication US5574015A (priority 1994, dated 1996).

Assay: general procedure: solution-phase peptide synthesis

| Substance | step yield (late stage modification step) [%] | step yield (coupling step) [%] |
| --- | --- | --- |
| H-Tbq-CH2 CH(CH2 C(O)CMe3)C(O)-Asp(cyPn)(Bzl)-NH--(S)--CH(CH2 CMe3)CH2 OBzl | 52 | – |
| Boc-(N-Me)Val-Tbq-CH2 (R)--CH(CH2 C(O)CMe3)C(O)-Asp(cyPn) (Bzl)-NH--(S)--CH (CH2 CMe3)CH2 OBzl | – | 72 |
| PEPTIDE1{[PhCH2CH2CO].[NMeVal].[TbgCH2-(R)-CH(CH2COCMe3)CO].[Asp(cyPn)].[gMeLeucinol]}$$$$V2.0 | 95 | – |

HELM strings list residues between dots; [ac] is acetyl, [am] amide, other brackets name non-standard units.
